Like-named read-outs stand apart in the source and are kept apart here.
Test system: Eμ-Mycp19^Arf−/− lymphoma cells expressing shRNAs targeting p53, ATR, Chk1, Chk2, Smg-1, DNAPKcs, Bok and Bim
Test: Eight-shRNA signature, probabilistic nearest-neighbors prediction of drug mechanism (GFP competition assay)
Assay type: cell-based, mouse
[1] = cluster size with versus without the test compound

Structure (SMILES)	Linkage Ratio [1]	Linkage Ratio
COc1cc2c(cc1O)CC[C@@H]1[C@@H]2CC[C@]2(C)[C@@H](O)CC[C@@H]12 [2-Methoxyestradiol]	1.08	
C[C@@]12C(=O)OC(=O)[C@]1(C)[C@H]1CC[C@@H]2O1 [Cantharidin]	1.27	
N.N.O=C([O-])C1(C(=O)[O-])CCC1.[Pt+2] [Carboplatin]	0.86	
O=NN(CCCl)C(=O)NCCCl [Carmustine]	0.95	
COc1cccc2c1C(=O)c1c(O)c3c(c(O)c1C2=O)C[C@@](O)(C(C)=O)C[C@@H]3O[C@H]1C[C@H](N)[C@H](O)[C@H](C)O1 [Daunorubicin]	0.83	
CN1C(=O)[C@]23CC4=CC=C[C@H](O)[C@H]4N2C(=O)[C@@]1(CO)SS3 [Gliotoxin]	1.11	
N[C@@H](Cc1ccc(N(CCCl)CCCl)cc1)C(=O)O [Melphalan]	0.91	
COc1ccc2c(c1OC)C(=O)O[C@@H]2[C@H]1c2c(cc3c(c2OC)OCO3)CCN1C [Noscapine]	0.83	
S=P(N1CC1)(N1CC1)N1CC1 [ThioTEPA]		0.92
CC[C@]1(O)C[C@@H]2CN(CCc3c([nH]c4ccccc34)[C@@](C(=O)OC)(c3cc4c(cc3OC)N(C)[C@H]3[C@@](O)(C(=O)OC)[C@H](OC(C)=O)[C@]5(CC)C=CCN6CC[C@]43[C@@H]65)C2)C1 [Vinblastine]	0.95	
